Pooled drug test results. Numbers come from NIAID ChemDB, via PubChem.

Shared fields: cytotoxicity tests; cell line: MRC-5; read-out: CC50

CCn: concentration that lowers growth or viability of the cells by n%.

structure,value
Cc1cn([C@H]2C[C@H](NC=O)[C@@H](CO)O2)c(=O)[nH]c1=O,>100 µM
CCCCN1C(=O)c2ccccc2N(Cc2ccc(OC)cc2)S1(=O)=O,59.1 µM
Nc1ccn(C[C@@H](CO)OCP(=O)(O)O)c(=O)n1,>100 µg/mL
C[C@H]1[C@H](O)[C@@H](CO)O[C@H]1n1cc(I)c(=O)[nH]c1=O,61.27 µg/mL
OC[C@H]1O[C@@H](n2c(Br)nc3cc(Cl)c(Cl)cc32)[C@H](O)[C@@H]1O,100 µM
Cc1cn([C@H]2C[C@H](O)[C@@H](CO)O2)c(=S)nc1N,>277.4 µM
O=C1c2sc3ccccc3c2N(Cc2ccc(Cl)cc2)S(=O)(=O)N1Cc1ccc(Cl)cc1,49.6 µM
CC#Cc1cn([C@@H]2O[C@H](COP(=O)(O)Oc3ccccc3Cl)[C@@H](O)[C@@H]2O)c(=O)[nH]c1=O,305 µM
Cc1cn([C@H]2C[C@H](N=C(N)N)[C@@H](CO)O2)c(=O)[nH]c1=O,>100 µM
CC(C)OC1=NS(=O)(=O)N(Cc2ccc(Cl)c(Cl)c2)c2ccccc21,2.5 µM
Nc1nc2c(ncn2COCCO)c(=O)[nH]1,>1000 µM
COc1ccc(CN2c3ccccc3C(=O)N(Cc3ccccc3)S2(=O)=O)cc1,>61 µM
CC#Cc1cn([C@@H]2O[C@H](COP(=O)(OCC)Oc3ccccc3)[C@@H](O)[C@@H]2O)c(=O)[nH]c1=O,>500 µM
OC[C@H]1OC[C@@H](n2c(Br)nc3cc(Cl)c(Cl)cc32)[C@@H]1O,100 µM
CC#Cc1cn([C@@H]2O[C@H](COP(=O)(N[C@H](C(=O)OC)C(C)C)Oc3ccccc3)[C@@H](O)[C@@H]2O)c(=O)[nH]c1=O,>500 µM
O=C(CCCCCCCCC(=O)Nc1cc(S(=O)(=O)O)cc2cc(S(=O)(=O)O)cc(O)c12)Nc1cc(S(=O)(=O)O)cc2cc(S(=O)(=O)O)cc(O)c12,>500 µM
Nc1nc(=S)n([C@@H]2O[C@H](CO)[C@@H](O)[C@@H]2O)cc1Cl,>341 µM
Cc1cn([C@H]2C[C@H](NC#N)[C@@H](CO)O2)c(=O)[nH]c1=O,>100 µM
CC#Cc1cn([C@@H]2O[C@H](COP(=O)(Oc3ccccc3)Oc3ccc([N+](=O)[O-])cc3)[C@@H](O)[C@@H]2O)c(=O)[nH]c1=O,110 µM
C[C@H]1[C@H](O)[C@@H](CO)O[C@H]1n1cc(Br)c(=O)[nH]c1=O,>100 µg/mL
O=c1[nH]c(=S)n([C@@H]2O[C@H](CO)[C@@H](O)[C@@H]2O)cc1CCO,>213 µM
Nc1ncnc2c1ncn2OCCCCP(=O)(O)O,>100 µg/mL
O=C1c2ccccc2N(Cc2ccc([N+](=O)[O-])cc2)S(=O)(=O)N1Cc1ccc([N+](=O)[O-])cc1,>53 µM
C[C@H]1[C@H](O)[C@@H](CO)O[C@H]1n1cc(I)c(N)nc1=O,>100 µg/mL
CC(C)CN1c2ccccc2C(=O)N(Cc2ccccc2)S1(=O)=O,>72 µM
Nc1nc2c(ccn2[C@@H]2C[C@H](CO)[C@@H](O)[C@H]2O)c(=O)[nH]1,>100 µg/mL
O=S1(=O)N=C(OCc2ccc(C(F)(F)F)cc2)c2ccccc2N1Cc1ccc(C(F)(F)F)cc1,>48 µM
Nc1nc2c(ncn2COCCCP(=O)([O-])O)c(=O)[nH]1,225 µM
O=C1c2sccc2N(Cc2ccc(Cl)c(Cl)c2)S(=O)(=O)N1Cc1ccccc1,55 µM
CC#Cc1cn([C@H]2C[C@H](O)[C@@H](CO)O2)c(=O)[nH]c1=O,>500 µM
CC#Cc1cn([C@@H]2O[C@H](COP(=O)(O)Oc3ccc(OC)cc3)[C@@H](O)[C@@H]2O)c(=O)[nH]c1=O,>500 µM
CC(C)Nc1nc2cc(Cl)c(Cl)cc2n1[C@@H]1CO[C@H](CO)C1,65 µM
Cc1cn([C@H]2C[C@H](O)[C@@H](CO)O2)c(=S)[nH]c1=O,>776 µM
CCCCCCCCCCCCCCCCOCCCOP(=O)(O)CCCOCn1cnc2c(=O)[nH]c(N)nc21,23 µM
Nc1ccn(C[C@@H](CO)OCP(=O)(O)O)c(=O)n1,19 µg/mL
CCCCCCCCCCCCCCCCOCCCOP(=O)(O)OCC(CO)OCn1cnc2c(=O)[nH]c(N)nc21,>300 µM
O=C(CCCCCCCCCCC(=O)Nc1cc(S(=O)(=O)O)c2cccc(S(=O)(=O)O)c2c1)Nc1cc(S(=O)(=O)O)c2cccc(S(=O)(=O)O)c2c1,191 µM
Nc1nc2c(ncn2C[C@]2(CO)C[C@H]2CO)c(=O)[nH]1,29 µg/mL
Nc1nc(=S)n([C@H]2C[C@H](O)[C@@H](CO)O2)cc1Br,312 µM
O=C(CCCCCCCCCCC(=O)Nc1cc(S(=O)(=O)O)cc2cc(S(=O)(=O)O)cc(O)c12)Nc1cc(S(=O)(=O)O)cc2cc(S(=O)(=O)O)cc(O)c12,>500 µM
CCCCCCCCCCCCCCCCOCCCOP(=O)(O)CCCOCn1cnc2c(NC3CC3)nc(N)nc21,41 µM
CC(C)CN1C(=O)c2ccccc2N(Cc2ccc(Cl)cc2)S1(=O)=O,65.9 µM
Nc1nc2c(ncn2COCCO)c(=O)[nH]1,1575 µM
Nc1nc2c(ncn2COC(CO)CO)c(=O)[nH]1,>100 µM
Nc1nc2c(ncn2COC2COP(=O)(O)OC2)c(=O)[nH]1,120 µM
CCCCN1C(=O)c2ccccc2N(C(=O)c2ccc(C)cc2)S1(=O)=O,59.4 µM
Nc1nc(NC2CC2)c2ncn(COCCCP(=O)(O)O)c2n1,>100 µM
Cc1ccc(N2CCC(CCOc3ccc4nc(C)oc4c3)CC2)nn1,>1 µg/mL
Nc1nc2c(ncn2COC(CO)CO)c(=O)[nH]1,>158 µM
CCCc1cn([C@H]2C[C@H](O)[C@@H](CO)O2)c(=S)[nH]c1=O,>277.6 µM
COc1ccc(CN2C(=O)c3ccccc3N(Cc3ccc(OC)cc3)S2(=O)=O)cc1,>57 µM
CCOC1=NS(=O)(=O)N(Cc2ccc(Cl)c(Cl)c2)c2ccccc21,6.4 µM
Nc1nc(=S)n([C@@H]2O[C@H](CO)[C@@H](O)[C@@H]2O)cc1Br,>592 µM
Nc1nc(=S)n([C@@H]2O[C@H](CO)[C@@H](O)[C@@H]2O)cc1CO,>253.5 µM
Nc1nc(=S)n([C@@H]2O[C@H](CO)[C@@H](O)[C@@H]2O)cc1I,>520 µM
O=C1c2sc3ccccc3c2N(Cc2ccc(Cl)cc2)S(=O)(=O)N1Cc1ccccc1,53.3 µM
CCCCN1C(=O)c2ccccc2N(C(=O)c2ccc(Br)cc2)S1(=O)=O,51.5 µM
COCCOCn1cc(C(N)=S)c2c(N)ncnc21,>100 µM
Nc1nc2c(ncn2OCC(CO)CCP(=O)(O)O)c(=O)[nH]1,>100 µg/mL
C[C@H]1OC[C@@H](n2c(Br)nc3cc(Cl)c(Cl)cc32)[C@@H]1O,100 µM
CC(C)COC1=NS(=O)(=O)N(Cc2ccc(Cl)c(Cl)c2)c2ccccc21,60.4 µM
Cc1ccc(N2CCC(CCOc3ccc4oc(C)nc4c3)CC2)nn1,>1 µg/mL
CC#Cc1cn([C@@H]2O[C@H](COP(=O)(O)Oc3ccc(F)cc3)[C@@H](O)[C@@H]2O)c(=O)[nH]c1=O,>500 µM
Nc1nc2c(ncn2COC(CO)CO)c(=O)[nH]1,>1000 µM

For reference, 6 entries again:

Nc1nc2c(ncn2C[C@]2(CO)C[C@H]2CO)c(=O)[nH]1 ; value: 29 µg/mL
CC#Cc1cn([C@@H]2O[C@H](COP(=O)(O)Oc3ccc(OC)cc3)[C@@H](O)[C@@H]2O)c(=O)[nH]c1=O ; value: >500 µM
Nc1nc(=S)n([C@@H]2O[C@H](CO)[C@@H](O)[C@@H]2O)cc1I ; value: >520 µM
CCCCN1C(=O)c2ccccc2N(Cc2ccc(OC)cc2)S1(=O)=O ; value: 59.1 µM
Nc1nc2c(ncn2COCCO)c(=O)[nH]1 ; value: 1575 µM
O=C1c2sccc2N(Cc2ccc(Cl)c(Cl)c2)S(=O)(=O)N1Cc1ccccc1 ; value: 55 µM

Conditions beyond the fields shown may differ between rows.